Assay results taken from doi:10.1101/2025.11.10.687524 (bioRxiv, 2025).

Target: T1, SurA(I297C)-His10 (disulfide-crosslinked SurA–BAM complex 2) (E. coli, UniProt P0ABZ6 21-428, I297C)
T1 sequence (looked up): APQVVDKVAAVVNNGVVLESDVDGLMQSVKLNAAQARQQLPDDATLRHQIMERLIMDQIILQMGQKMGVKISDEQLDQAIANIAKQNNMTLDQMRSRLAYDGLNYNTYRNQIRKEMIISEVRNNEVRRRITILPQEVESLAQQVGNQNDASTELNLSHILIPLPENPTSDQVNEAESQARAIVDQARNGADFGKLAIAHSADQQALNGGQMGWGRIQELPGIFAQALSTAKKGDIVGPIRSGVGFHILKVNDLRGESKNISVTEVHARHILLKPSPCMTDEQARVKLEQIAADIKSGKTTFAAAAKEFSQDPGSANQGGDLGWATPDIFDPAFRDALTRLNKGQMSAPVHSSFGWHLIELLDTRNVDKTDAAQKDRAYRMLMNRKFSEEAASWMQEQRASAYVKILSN
Test: cryo-EM structure

binding result: binds
B1: BamE(Y57C) (untagged, disulfide-crosslinked SurA–BAM complex 2) (natural protein)
chain: not shown
